Experimental data taken from the supplement of paper PMC9931576.
Human monoclonal antibodies against the spike receptor-binding domain (heavy:light variable regions). IC50 against pseudoviruses bearing the spike of naturally observed variants; lower = stronger; >10 µg/ml means not reached at the top dose. No active / inactive call. The stated detection limit is 0.0005 µg/ml; values near or below 0.001 µg/ml lie at the floor of the assay.

B1: BD55-5761 (protein)
chain 1: QITLKESGPSLVKPTQTLTLTCTFSGFSLSTTEVSVGWIRQPPGKALEWLALIYWDDGKRYSPSLESRLTITKDTSKNQVVLRMTHMDPVDTATYYCVHSHFDISTGYFGFDYWGQGTLVTVSS
chain 2: DIVMTQTPLSSPVTIGQPASISCRSSQSLAHSDGNIYLSWFHQRPGQPPRLLIYKVSNRFSGVPDRFSGSGAGTDFTLKISRVEAEDVGVYYCMQATQFPHEMYTFGQGTKLEIK
B2: BD55-5659 (protein)
chain 1: EVQLVESGGDLVQPGRSLRLSCAASGFTFDDYAMHWVRQGPGKGLEWVSGITWNSGSIGYADSVKGRFTISRDNAKNSLYLQMNSLRAEDTALYYCVKDTFRSGSYPWAFDLWGQGTMVTVSS
chain 2: EIVLTQSPATLSLSPGERATLSCRASQSVRSFLAWYQQKPGQAPRLLIYDASNRATGIPARFSGSGSGTSFTLTISSLEPEDFAVYYCQQRSDWRGTFGPGTKVDIK
B3: BD55-5733 (protein)
chain 1: QVQLVQSGAEVKKPGSSVKVSCKASGETFRSHTLNWMRQAPGQGLEWMGRIIPFLGVATGAQKFQARVTITADKSTSTAYMELSSLRSEDTAVYYCARGVVAATPGAFDIWGQGTLVTVSS
chain 2: EIVMTQSPATLSVSPGERATLSCRASQSVGSDLAWYQQKPGQAPRLLISGASTRATGIPARFTGSGSGTEFTLTISSLQSEDFAVYFCQQYNNWLTFGQGTKVEIK
B4: BD55-5634 (protein)
chain 1: QVQLVQSGSELKKPGASVKVSCKASGYIFTSYAINWVRQAPGQGLEWMGWIITNSGNPTYAQGFTGRFVFSLDTSVNTAYLQISSLKPEDTGVYYCARFSYLPPEELPYFDWSAHYYYYYAMDVWGQGTTVTVSS
chain 2: QSALTQPASVSGSPGQSITVSCTGTSSDVGAHNLVSWYQQYPGKAPKVMIYEDTKRPSGVSSRFSGSKSGNTASLTISGLQAEDEAAYYCFSYASSRSVVFGGGTKLTVL
B5: BD55-1093 (protein)
chain 1: QVQLVQSGVEVKKPGASVKISCKASGYTFTDYYMHWVRQAPGQGLEWMAVINPSDGSTLHAQKFQGRLTLSSDTSTSTVNMEMSSLKSEDTAVYYCARDLTRGHSGLDSFPDYWGHGTLVTVSS
chain 2: DIQMTQSPSSLSASVGDRVTIACRASQSIGGFLNWYQHKPGKAPKLLIYSASNLQSGVPSRFSGSGSGTEFTLTISRLQPEDIATYYCLQSYNTPPWTFGQGTKVEVK
B6: BD55-5745 (protein)
chain 1: QVQLVQSGSELKKPGASVKISCKASGYTFTTYGIKWVRQAPGQGLEWMGWINTNTGNPTYAQAFTGRFVFSLDTSVSTAYLQIDSLDTEDTAFYYCARVFCTDYTCFDVDYWGQGTPLTVSS
chain 2: QSVLTQPPSASGAPGQRVTISCSGSNSNIGSNYVYWYQHLPGTAPKLLIYRDNNRPSGVPDRFSGSKSGTSASLAISGLRSEDEADYYCAVWDDRLSGRVFGGGTKLAVL
B7: BD55-5638 (protein)
chain 1: QIQLVQSGAEVKKPGASVKVSCKASGYNFRSYGISWVRQAPGQGLEWMGWISGYDGNTEYKQNFQGRVTMTTDTSTSTAYMELRSLRSDDTAVFYCARDRVYSGYDSTDMNPQGDYWGQGTLVTVSS
chain 2: DIQMAQSPSTLSASVGDRVSITCRTSQSVSDLLAWYQQKPGKAPKLLIYKTSSLESGVPSRFSGSGSGTDFTLTISSLQPDDIATYYCQQYKFYWTFGQGTRVEIK
B8: BD55-5743 (protein)
chain 1: QVQLVQSGSELQRPGASVKVSCKASGYTFSTYALKWVRQAPGQGLEWMGWINTNTGNPTYAQGFAGRFVFSLDASVTTAYLQINSLKPEDTAIYYCARVFCSYDTCYDVDYWGQGTLVTVSS
chain 2: QSVLTQPPSASGTPGQRVTISCSGSSSNIGSNFVYWYQQLPGTAPKLLIYRNNHRPSGVPDRFSGSKSGTSASLAITGLRSEDEADYYCAAWDDGLTGRMFGGGTKLTVL
B9: BD55-5721 (protein)
chain 1: QVQLVQSGAEVKKPGSSVKVSCKASGGTFSSYIINWVRQAPGQGLEWMGRIIPSLGVVNDAQKFQGRVTFIADKSTSTAYMELSGLRSEDTAVYYCARQQWLVDLYSYYGLDVWGQGTTVTVSS
chain 2: DIVMTQTPLSLSVTPGQPAYISCKSSQSLLDTDGKTYLYWYLQKPGQSPQLLIYEVSRRFSGVPERFSGSGSGTDFTLKISRVEAEDVGVYYCMQATHLPYTFGQGTKLEIK
B10: BD55-5643 (protein)
chain 1: QVQLVQSGSELKKPGASVKLSCKASGNTFTNYAMNWVRQAPGQGLEWMGWVNTNTGHPTYAQGFTGRFVFSFDTSVNTAYLQISSLKTEDTAVYYCAGSNWNDYWFDPWGQGTLVTVSS
chain 2: EIVMTQSPATLSVSPGERATLSCRASYSLSNNLAWYQQKPGQAPRLLIYDASTRATGFPARFSGSGSGTEFSLTISSLQSEDVAVYYCQQYTSWPLTFGQGTKVEI
B11: BD55-5753 (protein)
chain 1: QAQLVQSGAEVKKPGASVKVSCKASGYTSTSFDVNWVRQATGQGLEWMGWVNPKTGDTGYAQKFEGRVTMTRNTSISTVYMELNSLRSEDTAVYFCATGLYYWPNVFDPWGQGTLVIVSS
chain 2: DIQMTQSPSSLSASVGDRVTITCRASQSISNELSWYQQRPGKAPKLLIYTASSLQSGVPSRFSGSGSGTDFTLTISSLQPEDFATYYCQQSYSTPGTFGLGTKLEIK
B12: BD55-5700 (protein)
chain 1: EVQLVEAGGGLVQPGRSLRLSCTASGFSFGDHAMNWVRQAPGKGLEWVGFIRTKPYGGTTDYAASVRGRFTISRDDSKSIAYLQMNSLKTEDTAVYYCAREEDRGYSGYDFLDYFYGMDVWGQGTTVTVSS
chain 2: QSVLTQPPSASGTPGQRVTISCSGSSSNIGREYVYWYQQLPGTAPKLLIYRNNQRPSGVPDRFSGSKSGTSASLAISGLRSEDEADYYCAAWDDSLSAFVFGTGTRVTVL

These binders were tested against SARS-CoV-2 Omicron BA.1 spike pseudovirus (assay: pseudovirus neutralization IC50; higher = weaker neutralization).
Description: (§1)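 Single-round VSV luciferase pseudovirus mixed with antibody dilutions for 1 h and put on Huh-7 cells for about a day; IC50 from the dose curve.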

Binder | pseudovirus neutralization IC50 [µg/mL]
B1 | > 10
B2 | > 10
B3 | > 10
B4 | > 10
B5 | > 10
B6 | > 10
B7 | > 10
B8 | > 10
B9 | > 10
B10 | 1.9
B11 | > 10
B12 | 0.0669

The binders below were run against SARS-CoV-2 Omicron BA.2 spike pseudovirus in the same assay as above.
Description: as §1

Binder | pseudovirus neutralization IC50 [µg/mL]
B1 | > 10
B2 | > 10
B3 | > 10
B4 | > 10
B5 | > 10
B6 | > 10
B7 | > 10
B8 | > 10
B9 | 2.17
B10 | 1.2
B11 | > 10
B12 | > 10

These binders were tested against SARS-CoV-2 Omicron BA.2.75 spike pseudovirus in the same assay as above.
Description: as §1

Binder | pseudovirus neutralization IC50 [µg/mL]
B1 | > 10
B2 | > 10
B3 | > 10
B4 | > 10
B5 | > 10
B6 | > 10
B7 | > 10
B8 | > 10
B9 | > 10
B10 | 6.19
B11 | > 10
B12 | > 10

These binders were tested against SARS-CoV-2 Omicron BA.5 spike pseudovirus in the same assay as above.
Description: as §1

Binder | pseudovirus neutralization IC50 [µg/mL]
B1 | > 10
B2 | > 10
B3 | > 10
B4 | > 10
B5 | > 10
B6 | > 10
B7 | > 10
B8 | > 10
B9 | > 10
B10 | 1.32
B11 | > 10
B12 | > 10

What follows are binders tested against SARS-CoV-2 Omicron BQ.1.1 spike pseudovirus in the same assay as above.
Description: as §1

Binder | pseudovirus neutralization IC50 [µg/mL]
B1 | > 10
B2 | > 10
B3 | > 10
B4 | > 10
B5 | > 10
B6 | > 10
B7 | > 10
B8 | > 10
B9 | > 10
B10 | > 10
B11 | > 10
B12 | > 10

What follows are binders tested against SARS-CoV-2 Omicron XBB spike pseudovirus in the same assay as above.
Description: as §1

Binder | pseudovirus neutralization IC50 [µg/mL]
B1 | > 10
B2 | > 10
B3 | > 10
B4 | > 10
B5 | > 10
B6 | > 10
B7 | > 10
B8 | > 10
B9 | > 10
B10 | > 10
B11 | > 10
B12 | > 10

Each binder was assayed against SARS-CoV-2 early D614G spike pseudovirus in the same assay as above.
Description: as §1

Binder | pseudovirus neutralization IC50 [µg/mL]
B1 | 0.15
B2 | 0.00117
B3 | 0.00128
B4 | 0.001
B5 | > 10
B6 | 0.243
B7 | 0.473
B8 | 0.0538
B9 | 1.32
B10 | 0.00124
B11 | > 10
B12 | 0.0733
